The experiment deals with SARS-CoV-2 spike protein, original Wuhan strain (SARS-CoV-2 (Wuhan strain)). Nature of the experiment: cell-based or functional assay.

B1: Re9B09 (VHH)
VHH: QVQLVESGGGLVQPGGSLRLSCAASGFTLDYYAIGWFRQAPGKEREGVSRISSSDGSTDYADSVKGRFTISRDNAKNTVYLQMNSLKPEDTAVYYCATVPGTYYSGNWYYTWHPEAVDYWGKGTQVTVSS
notes: also called ReB09
In the case of B1, the “Lowest neutralizing concentration (pM)” value was found to be 500 pM.

B2: Re6H06 (VHH)
VHH: QVQLVESGGGLVQPGGSLRLSCAASGVTLDYYAIGWFRQAPGKEREGVSCTSSSDGSTYYADSVKGRFTISRDNAKNTVYLQMNSLKPEDTGVYYCAVVPQTYYGGKYYSQCTANGMDYWGKGTLVTVSS
In the case of B2, the “Lowest neutralizing concentration (pM)” value came to 170 pM.
